Experimental findings from article doi:10.1101/426809 are described below.

The target in the data set is T1, HupA6xHis (Clostridium difficile 630Δerm) (UniProt Q180Z4).
T1 sequence (looked up, limits assumed): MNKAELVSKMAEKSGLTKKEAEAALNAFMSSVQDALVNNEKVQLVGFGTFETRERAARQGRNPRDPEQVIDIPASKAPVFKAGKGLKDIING
The experiment in a line: EMSA. The settings on record: 12 mM Mg2+, 2.5 mM ATP, no notable difference in affinity between G+C contents. A general note: A gel shift assay detects complexes by their altered migration in electrophoresis.

For at least one entry, the source does not settle the construct or the ends of the probe. Where a protein sequence is shown, tags need not be part of it.

Regarding “CATCAGGCAAGAGTAGTCACTGTGTAGCTCGTGGATGC (double strand) [oAF63/oAF64, 52.6% G+C]”, the binding signal (% DNA bound at 2 µM protein) is 70. The result for “CGCCAGGCCAGGGCTGTCACTGTGCAGCTCGTGGACGC (double strand) [oAF61/oAF62, 71.1% G+C]” reads 70.
